{"source": "PubChem BioAssay AID504761 (Drosophila RNAi Screening Center, 2011)", "aim": "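Insect host genes that dengue virus relies on to spread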 (primary screen)", "system": "D.Mel-2 cells from Drosophila", "reagents": "long dsRNA against Drosophila genes", "challenge": "infection with dengue virus type 2; dose and infection time not stated", "read-out": "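Cells stained for dengue envelope protein and imaged; percent of infected cells per well on duplicate plates, ranked by infection, with stained nuclei counted for cell number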", "direction": "infection score: higher = more virus-infected cells; cell count: higher = more cells in the well", "rule for the call": "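Low infection ranks in the two replicates (chance level up to 0.065) followed by a retest with a 1.5-fold or larger significant decrease, p below 0.05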", "meaning of the calls": "active = confirmed: knock-down lowers infection; inactive = not picked or not confirmed", "note": "The screen tested about 22,000 reagents; below is a random part of those with a known target gene and a result. Over the whole deposit, 116 (0.52%) got an active call. 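Calls depend on retest data that are not deposited; infection was ranked per plate without normalising between plates; the unit of the infection score is not given.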 Raw values are not corrected between plates. A number with no mark means an inactive call. The numbers tell different reagents against one gene apart. Not all columns of the deposit are shown. Not given: the amount of reagent, the time to read-out."}
{"predicted target": "ND-B8 (GeneID 50178)", "reagent no.": 1, "infection score, replicate 1": 2.14, "cell count, replicate 1": 6960}
{"predicted target": "CG7611 (GeneID 40386)", "reagent no.": 1, "infection score, replicate 1": 1.13, "cell count, replicate 1": 5862}
{"predicted target": "CG1602 (GeneID 35684)", "reagent no.": 1, "infection score, replicate 1": 15.6, "cell count, replicate 1": 7075}
{"predicted target": "TfIIFalpha (GeneID 40790)", "reagent no.": 1, "infection score, replicate 1": 30.7, "cell count, replicate 1": 3020}
{"predicted target": "TfIIFalpha (GeneID 40790)", "reagent no.": 2, "infection score, replicate 1": 1.66, "cell count, replicate 1": 5895}
{"predicted target": "fh (GeneID 31845)", "reagent no.": 1, "infection score, replicate 1": 1.73, "cell count, replicate 1": 5895}
{"predicted target": "Dll (GeneID 37973)", "reagent no.": 1, "infection score, replicate 1": 9.66, "cell count, replicate 1": 6272}
{"predicted target": "Dll (GeneID 37973)", "reagent no.": 2, "infection score, replicate 1": 5.22, "cell count, replicate 1": 5750}
{"predicted target": "corolla (GeneID 32739)", "reagent no.": 1, "infection score, replicate 1": 27.1, "cell count, replicate 1": 3522}
{"predicted target": "alpha-PheRS (GeneID 31740)", "reagent no.": 1, "infection score, replicate 1": 8.1, "cell count, replicate 1": 5688}
{"predicted target": "alpha-PheRS (GeneID 31740)", "reagent no.": 2, "infection score, replicate 1": 4.28, "cell count, replicate 1": 5533}
{"predicted target": "CG11899 (GeneID 46391)", "reagent no.": 1, "infection score, replicate 1": 0.96, "cell count, replicate 1": 7007}
{"predicted target": "Mekk1 (GeneID 42253)", "reagent no.": 1, "infection score, replicate 1": 4.15, "cell count, replicate 1": 5640}
{"predicted target": "Mekk1 (GeneID 42253)", "reagent no.": 2, "infection score, replicate 1": 9.78, "cell count, replicate 1": 5980}
{"predicted target": "ppk18 (GeneID 34295)", "reagent no.": 1, "infection score, replicate 1": 4.68, "cell count, replicate 1": 6524}
{"predicted target": "Atg13 (GeneID 40998)", "reagent no.": 1, "infection score, replicate 1": 12.4, "cell count, replicate 1": 6154}
{"predicted target": "CG7512 (GeneID 39289)", "reagent no.": 1, "infection score, replicate 1": 2.12, "cell count, replicate 1": 5896}
{"predicted target": "CG17050 (retired record) (GeneID 36482)", "reagent no.": 1, "infection score, replicate 1": 0.75, "cell count, replicate 1": 797}
{"predicted target": "sordd1 (GeneID 32532)", "reagent no.": 1, "infection score, replicate 1": 7.92, "cell count, replicate 1": 6085}
{"predicted target": "CG13631 (GeneID 50073)", "reagent no.": 1, "infection score, replicate 1": 0.49, "cell count, replicate 1": 5462}
{"predicted target": "CG13631 (GeneID 50073)", "reagent no.": 2, "infection score, replicate 1": 9.33, "cell count, replicate 1": 5115}
{"predicted target": "moon (GeneID 32176)", "reagent no.": 1, "infection score, replicate 1": 1.9, "cell count, replicate 1": 6526}
{"predicted target": "CG5246 (GeneID 42072)", "reagent no.": 1, "infection score, replicate 1": 2.09, "cell count, replicate 1": 6550}
{"predicted target": "CG5246 (GeneID 42072)", "reagent no.": 2, "infection score, replicate 1": 14.6, "cell count, replicate 1": 6229}
{"predicted target": "CG4021 (GeneID 37484)", "reagent no.": 1, "infection score, replicate 1": 8.51, "cell count, replicate 1": 7235}
{"predicted target": "CG4021 (GeneID 37484)", "reagent no.": 2, "infection score, replicate 1": 11.8, "cell count, replicate 1": 6523}
{"predicted target": "Arf1 (GeneID 40506)", "reagent no.": 1, "infection score, replicate 1": 6.65, "cell count, replicate 1": 6088}

4 of these entries in another layout.
CG7512 (GeneID 39289)
- infection score, replicate 1: 2.12
- cell count, replicate 1: 5896

CG17050 (retired record) (GeneID 36482)
- infection score, replicate 1: 0.75
- cell count, replicate 1: 797

sordd1 (GeneID 32532)
- infection score, replicate 1: 7.92
- cell count, replicate 1: 6085

CG13631 (GeneID 50073) #1
- infection score, replicate 1: 0.49
- cell count, replicate 1: 5462
